Measured values: patent US8071797B2 (priority 2008, dated 2011)
The match of structure and compound is tentative.

Target: HCV polymerase (NS5B570n-Con1) (Hepatitis C virus genotype 1b, UniProt Q9WMX2)
Assay: HCV NS5B RNA polymerase activity assay
Format: biochemical, HCV Con1 strain
Details: read-out: IC50 NS5B polymerase assay; Table I
Experimental: The enzymatic activity of HCV polymerase (NS5B570n-Con1) was measured as the incorporation of radiolabeled nucleotide monophosphates into acid insoluble RNA products. Unincorporated radiolabeled substrate was removed by filtration and scintillant was added to the washed and dried filter plate containing radiolabeled RNA product. The amount of RNA product generated by NS5B570-Con1 at the end of the reaction was directly proportional to the amount of light emitted by the scintillant.
The N-terminal 6-histidine tagged HCV polymerase, derived from HCV Con1 strain, genotype 1b (NS5B570n-Con1) contains a 21 amino acid deletion at the C-terminus relative to the full-length HCV polymerase and was purified from E. coli strain BL21 (DE) pLysS. The construct, containing the coding sequence of HCV NS5B Con1 (GenBank accession number AJ242654) was inserted into the plasmid construct pETI 7b, downstream of a T7 promoter expression cassette and transformed into E. coli. […]
The amount of light emitted from the scintillant was converted to counts per minute (CPM) on a Topcount® plate reader (Perkin-Elmer, Energy Range: Low, Efficiency Mode Normal, Count Time: 1 min, Background Subtract: none, Cross talk reduction: Off).
Data was analyzed in Excel® (Microsoft®) and ActivityBase® (idbsg). […] All data was expressed as a percentage of the positive control. […]

CNC(=O)c1c(-c2ccc(Oc3ccc(F)cc3)cc2)oc2cc(N(CCCC(=O)OC)S(C)(=O)=O)c(C3CC3)cc12
IC50: 8 nM
